Test results from article PMC3777804 (Journal of computer-aided molecular design, 2013).

Tested on: TZM-bl and HL2/3 cells
Conditions: cytotoxicity under conditions similar to cell-cell fusion

Substance | CC50 [µM]
[Phe]-Trp | > 50
[Trp]-Phe | > 50
[Trp]-Trp | > 50
